Measured values from several laboratories, pooled; numbers as filed in NIAID ChemDB.

Shared fields: host cell toxicity; cell line: VERO; read-out: CC50

Rows are shuffled and stem from different studies. An empty or dashed field is not shown. CCn: concentration that lowers growth or viability of the cells by n%.

compound | method | result
Cc1cccc2c1OP(=O)(OC[C@H]1O[C@@H](n3cc(/C=C/Br)c(=O)[nH]c3=O)C[C@@H]1OC(=O)C(C)(C)C)OC2 |  | 33.7 µg/mL
Cc1cc(=O)c2c(O)c3c(O)cc(O)c4c5c(O)cc(O)c6c(O)c7c(=O)cc(C)c8c1c2c(c34)c(c65)c78 | neutral red | 50 µg/mL
COc1ccc(N2CCN(C(=O)Cc3nn(Cc4ccc(Br)cc4F)c(=O)c4ccccc34)CC2)cc1 | MTT | >111 µM
[Cl][Fe][Cl].c1cnc2c(c1)ccc1cccnc12 |  | 1.22 µg/mL
Oc1cccc(-c2c3nc(c(-c4cccc(O)c4)c4ccc([nH]4)c(-c4cccc(O)c4)c4nc(c(-c5cccc(O)c5)c5ccc2[nH]5)C=C4)C=C3)c1 |  | 3.8 µM
COc1ccc(-c2cc(C(=O)O)c3cc4ccccc4cc3n2)cc1Br |  | 26.33 µg/mL
Nc1cccc(-c2c3nc(c(-c4cccc(N)c4)c4ccc([nH]4)c(-c4cccc(N)c4)c4nc(c(-c5cccc(N)c5)c5ccc2[nH]5)C=C4)C=C3)c1 |  | 6.6 µM
Cc1cc2c(ccc3nc(N)nc(N)c32)[nH]1 |  | 20 µg/mL
CCOC(=O)C(CCSC[C@H]1O[C@@H](n2ccc3c(N)ncnc32)[C@H](O)[C@@H]1O)NC(=O)COC |  | >400 µg/mL
Cc1cccc2c1OP(=O)(OC[C@H]1O[C@@H](n3cc(/C=C/Br)c(=O)[nH]c3=O)C[C@@H]1OC(=O)[C@@H](N)Cc1ccccc1)OC2 |  | 88.8 µg/mL
O=c1[nH]c(=O)n([C@H]2C[C@H](O)[C@@H](CO)O2)cc1/C=C/Br |  | 32 µg/mL
CCn1cc(C(=O)NN)c(=O)c2ccc(-c3ccncc3)cc21 |  | >50 µg/mL
[N-]=[N+]=N[C@H]1C[C@H](n2cc(/C(Br)=C\I)c(=O)[nH]c2=O)O[C@@H]1CO |  | 27.7 µM
COc1cc([C@@H]2c3cc4c(cc3[C@H](OC(C)=O)[C@@H]3COC(=O)[C@@H]23)OCO4)cc2nccnc12 |  | >25 µg/mL
O=C1Nc2c(Cl)cc(Cl)cc2C12Nc1ccccc1S2 |  | 20 µg/mL
C/C=C1\[C@H](OC2O[C@H](CO)[C@@H](O)[C@H](O)[C@H]2O)OC=C(C(=O)OC)[C@H]1CC(=O)OCC1O[C@H](OCCc2ccc(O)c(O)c2)[C@@H](O)[C@H](O)[C@H]1O |  | 291.7 µM
Cn1c(=O)c2nc(-c3ccccc3)nnc2n(C)c1=O |  | 1.03 µg/mL
Cc1cccc(C)c1NC(=O)Cc1nn(Cc2ccc(Br)cc2F)c(=O)c2ccccc12 | MTT | >126 µM
O=C(O)P(=O)(O)O |  | 190 µg/mL
CCCCCC(=O)O[C@H]1C[C@H](n2cc(/C=C/Br)c(=O)[nH]c2=O)O[C@@H]1COP1(=O)OCc2cccc(C)c2O1 |  | 13.8 µg/mL
Oc1cc(O)c2c(c1)O[C@H](c1ccc(O)c(O)c1)[C@H](O)C2 |  | >50 µg/mL
OC(c1cc(-c2ccccc2)nc2c(Cl)cc(Cl)cc12)C1CCCCN1 |  | 1.42 µg/mL
CCn1cc(C(=O)NOC)c(=O)c2ccc(-c3ccncc3)cc21 |  | >25 µg/mL
C/C=C1\[C@H](OC2O[C@H](CO)[C@@H](O)[C@H](O)[C@H]2O)OC=C(C(=O)OC)[C@H]1CC(=O)OC |  | 166.7 µM
OCC(O)COCCCCCCCCCCCC1C=CCC1 |  | 10.85 µg/mL
Cc1ccnc(NC(=O)Cc2nn(Cc3ccc(Br)cc3F)c(=O)c3ccccc23)c1 | MTT | <130 µM
CCC(C)C(N)C(=O)O[C@H]1C[C@H](n2cc(/C=C/Br)c(=O)[nH]c2=O)O[C@@H]1COP1(=O)OCc2cccc(C)c2O1 |  | 64.4 µg/mL
Oc1cc(O)c2c(c1)O[C@H](c1ccc(O)c(O)c1)[C@@H](O)C2 |  | >50 µg/mL
C/C=C1\[C@H](OC2O[C@H](CO)[C@@H](O)[C@H](O)[C@H]2O)OC=C(C(=O)O)[C@H]1CC(=O)OCCc1ccc(O)cc1 |  | 250 µM
[Cl][Sn]([Cl])([c]1cccs1)[c]1cccs1.c1cnc2c(c1)ccc1cccnc12 |  | 2.2 µg/mL
COC(=O)N[C@H](C(=O)N1CCC[C@H]1c1nc2ccc(-c3csc4c(-c5ccc(-c6cnc([C@@H]7CCCN7C(=O)[C@H](NC(=O)OC)c7ccccc7)[nH]6)cc5)csc34)cc2[nH]1)C(C)C | resazurin | >50 µM
O=c1[nH]c(=O)n([C@H]2C[C@H](F)[C@@H](CO)O2)cc1/C(I)=C/I |  | 82.7 µM
COc1cc([C@@H]2c3cc4c(cc3[C@H](O)[C@H]3COC(=O)[C@H]23)OCO4)cc(OC)c1OC |  | >20 µg/mL
CCCCCCOC(=O)c1cnccn1 | MTS | >480 µM
Cc1ccc2nc(-c3cccc([N+](=O)[O-])c3)c(N=O)n2c1 |  | 3.27 µg/mL
O=c1[nH]c(=O)n([C@H]2C[C@H](F)[C@@H](CO)O2)cc1/C(Cl)=C/I |  | 18.5 µM
CCn1cc2c(=O)[nH]nc-2c2ccc(-c3ccncc3)cc21 |  | >50 µg/mL
C#Cc1c(C(N)=O)ncn1[C@@H]1O[C@H](CO)[C@@H](O)[C@H]1O | MTT / neutral red | 4.1 µg/mL
Nc1nncc2c([C@H]3CC[C@@H](CCP(=O)(O)O)C3(F)F)c[nH]c12 | MTT / absorbance | 15.9 µM
O[C@]12C=C(Cc3cccc4cnccc34)[C@@H]3CCN(CCCC/C=C\CC1)C[C@@]31C[C@@H]3CCCCCCN3C12 |  | >4.76 µg/mL
CCOC(=O)Nc1cc(NC(C)CC(C)CN(CC)CC)c2nc(-c3ccccc3)c(-c3ccccc3)nc2n1 |  | 6.3 µg/mL
c1csc(-c2nnc(Cc3cccc4ccccc34)o2)c1 | fluorescence | >100 µM
CCN(CC)CCNc1ccc(C)c2sc3ccc(N)cc3c(=O)c12 |  | 1.02 µg/mL
c1csc(-c2nnc(COc3ccc4c(c3)OCO4)o2)c1 | fluorescence | >100 µM
Cc1ccc(S(=O)(=O)Oc2ccc3sc4c(CO)ccc(NCCN(C)C)c4c(=O)c3c2)cc1 |  | 2.51 µg/mL
O=C(OCCOC(=O)c1cnccn1)c1cnccn1 | MTS | >365 µM
O=C(O)c1cccc2nc3ccccc3nc12 |  | >5 µg/mL
N#Cc1c(N)n[nH]c1-c1ccc(F)cc1 |  | 30 µg/mL
CC(/C=N/NC(=S)SCc1ccccc1)=N\NC(N)=S |  | 12.5 µg/mL
CCOC(=O)C(CCSC[C@H]1O[C@@H](n2ccc3c(N)ncnc32)[C@H](O)[C@@H]1O)NC(C)=O |  | 100 µg/mL
COc1cc([C@@H]2c3cc4c(cc3[C@H](OC(C)=O)[C@@H]3COC(=O)[C@@H]23)OCO4)cc2c1OC1(N3CCOCC3)CCCCC1O2 |  | >25 µg/mL
O[C@]12C=C(Cc3cc4cc(F)ccc4[nH]3)[C@@H]3CCN(CCCC/C=C\CC1)C[C@@]31C[C@@H]3CCCCCCN3C12 |  | >4.76 µg/mL
O=c1cc(-c2ccccc2)oc2cc(O)cc(O)c12 |  | >50 µg/mL
O[C@]12C=C(c3nccc4c3[nH]c3ccccc34)[C@@H]3CCN(CCCC/C=C\CC1)C[C@@]31CC/C=C\CCCCNC12 |  | >4.76 µg/mL
CC1OC(C)C(O)C2=C1C(=O)c1ccccc1C2=O |  | 4.31 µg/mL
Cc1ccc(NC(=O)Cc2nn(Cc3ccc(Br)cc3F)c(=O)c3ccccc23)c(C)c1 | MTT | >126 µM
O=c1[nH]c(=O)n([C@@H]2O[C@H](CO)[C@@H](O)[C@H]2O)cc1F | neutral red | 0.82 µg/mL
c1coc(-c2nnc(SCc3cccc4ccccc34)o2)c1 | fluorescence | >100 µM
CC[CH2][Sn]([Cl])([Br])[CH2]CC.c1cnc2c(c1)ccc1cccnc12 |  | 0.14 µg/mL
COc1ccccc1-c1c2nc(c(-c3ccccc3OC)c3ccc([nH]3)c(-c3ccccc3OC)c3nc(c(-c4ccccc4OC)c4ccc1[nH]4)C=C3)C=C2 |  | 91.5 µM
COc1cc(NC(=O)Nc2cccc(CNC(=O)O[C@H]3CCOC3)c2)ccc1-c1cnco1 | MTT | >31 µM
COc1cc([C@@H]2c3cc4c(cc3[C@H](OC(C)=O)[C@@H]3COC(=O)[C@@H]23)OCO4)cc(O)c1O |  | >25 µg/mL
Cc1ccc(NC(=O)c2ccccc2)cc1Cl |  | >200 µg/mL
COc1cc([C@@H]2c3cc4c(cc3[C@H](OC(C)=O)[C@@H]3COC(=O)[C@@H]23)OCO4)cc(OC)c1OC |  | >20 µg/mL
CSC(=S)NN=C(C)C |  | 10.93 µg/mL
[O-][n+]1ccc(CC2=C[C@@]3(O)CC/C=C\CCCCN4CC[C@@H]2[C@]2(C[C@@H]5CCCCCCN5C23)C4)cc1 |  | >4.76 µg/mL
COc1cc([C@@H]2c3cc4c(cc3[C@H](OC(C)=O)[C@@H]3COC(=O)[C@@H]23)OCO4)cc2nc3cc(C)c(C)cc3nc12 |  | >25 µg/mL
Cc1cccc2c1OP(=O)(OC[C@H]1O[C@@H](n3cc(/C=C/Br)c(=O)[nH]c3=O)C[C@@H]1O)OC2 |  | >128 µg/mL
O=C(OCCCOC(=O)c1cnccn1)c1cnccn1 | MTS | >347 µM
Nc1ccc(-c2c3nc(c(-c4ccc(N)cc4)c4ccc([nH]4)c(-c4ccc(N)cc4)c4nc(c(-c5ccc(N)cc5)c5ccc2[nH]5)C=C4)C=C3)cc1 |  | 1.6 µM
CCn1cc(C(N)=O)c(=O)c2ccc(-c3ccccc3)cc21 |  | >50 µg/mL
OC(c1cc(-c2ccccc2)nc2cc(Cl)ccc12)C1CCCCN1 |  | 1.5 µg/mL
NC(=O)c1csc([C@@H]2O[C@H](COP(=O)(O)CP(=O)(O)OC[C@H]3O[C@@H](n4cnc5c(N)ncnc54)[C@H](O)[C@@H]3O)[C@@H](O)[C@H]2O)n1 | neutral red | >1000 µg/mL
COc1cc([C@@H]2c3cc4c(cc3[C@H](OC(C)=O)[C@@H]3COC(=O)[C@@H]23)OCO4)cc2c1OC1(N3CCCC3)CCCCC1O2 |  | >25 µg/mL
O=C(OCCCl)c1cnccn1 | MTS | >536 µM
CO[C@H]1/C=C/O[C@@]2(C)Oc3c(C)c(O)c4c(O)c(c(/C=N/N5CCN(C)CC5)c(O)c4c3C2=O)NC(=O)/C(C)=C\C=C\[C@H](C)[C@H](O)[C@@H](C)[C@@H](O)[C@@H](C)[C@H](OC(C)=O)[C@@H]1C | MTT | 512 µg/mL
CC(C)(C)c1cccc2c1OP(=O)(OC[C@H]1O[C@@H](n3cc(/C=C/Br)c(=O)[nH]c3=O)C[C@@H]1O)OC2 |  | 36.2 µg/mL
c1ccc(-c2ccc(-c3ccc(C4=NCCN4)cc3)o2)cc1 |  | 1.5 µg/mL
O[C@]12C=C(Cc3nccc4ccccc34)[C@@H]3CCN(CCCC/C=C\CC1)C[C@@]31C[C@@H]3CCCCCCN3C12 |  | >4.76 µg/mL
Oc1cc(O)c2c(c1)O[C@H](c1cc(O)c(O)c(O)c1)[C@@H](O)C2 |  | >80 µg/mL
COCC(=O)NC(CCSC[C@H]1O[C@@H](n2ccc3c(N)ncnc32)[C@H](O)[C@@H]1O)C(=O)O |  | >400 µg/mL
O=C1CCCN2C(CC1)C[C@]13CN4CCCC/C=C\CC[C@](O)(C=C(c5nccc6c5[nH]c5c(O)cccc56)[C@@H]1CC4)[C@H]23 |  | >4.76 µg/mL
COc1cccc(-c2c3nc(c(-c4cccc(OC)c4)c4ccc([nH]4)c(-c4cccc(OC)c4)c4nc(c(-c5cccc(OC)c5)c5ccc2[nH]5)C=C4)C=C3)c1 |  | >200 µM
CN(C)c1ccc2nc3ccc(N)cc3[n+](-c3ccccc3)c2c1.[Cl-] |  | 19.8 µg/mL
Nc1ncnc2c1c(Br)cn2[C@@H]1O[C@H](CO)[C@@H](O)[C@H]1O |  | 0.1 µg/mL
CCN(CC)CCCN(C)Cc1c(-c2ccccc2)oc(-c2ccccc2)c1Cl |  | 1.8 µg/mL
Cc1cccc2c1OP(=O)(OC[C@H]1O[C@@H](n3cc(/C=C/Br)c(=O)[nH]c3=O)C[C@@H]1OC(=O)[C@H](C)N)OC2 |  | 74.1 µg/mL

The last 11 rows once more:

| compound | method | result |
|---|---|---|
| CC(C)(C)c1cccc2c1OP(=O)(OC[C@H]1O[C@@H](n3cc(/C=C/Br)c(=O)[nH]c3=O)C[C@@H]1O)OC2 |  | 36.2 µg/mL |
| c1ccc(-c2ccc(-c3ccc(C4=NCCN4)cc3)o2)cc1 |  | 1.5 µg/mL |
| O[C@]12C=C(Cc3nccc4ccccc34)[C@@H]3CCN(CCCC/C=C\CC1)C[C@@]31C[C@@H]3CCCCCCN3C12 |  | >4.76 µg/mL |
| Oc1cc(O)c2c(c1)O[C@H](c1cc(O)c(O)c(O)c1)[C@@H](O)C2 |  | >80 µg/mL |
| COCC(=O)NC(CCSC[C@H]1O[C@@H](n2ccc3c(N)ncnc32)[C@H](O)[C@@H]1O)C(=O)O |  | >400 µg/mL |
| O=C1CCCN2C(CC1)C[C@]13CN4CCCC/C=C\CC[C@](O)(C=C(c5nccc6c5[nH]c5c(O)cccc56)[C@@H]1CC4)[C@H]23 |  | >4.76 µg/mL |
| COc1cccc(-c2c3nc(c(-c4cccc(OC)c4)c4ccc([nH]4)c(-c4cccc(OC)c4)c4nc(c(-c5cccc(OC)c5)c5ccc2[nH]5)C=C4)C=C3)c1 |  | >200 µM |
| CN(C)c1ccc2nc3ccc(N)cc3[n+](-c3ccccc3)c2c1.[Cl-] |  | 19.8 µg/mL |
| Nc1ncnc2c1c(Br)cn2[C@@H]1O[C@H](CO)[C@@H](O)[C@H]1O |  | 0.1 µg/mL |
| CCN(CC)CCCN(C)Cc1c(-c2ccccc2)oc(-c2ccccc2)c1Cl |  | 1.8 µg/mL |
| Cc1cccc2c1OP(=O)(OC[C@H]1O[C@@H](n3cc(/C=C/Br)c(=O)[nH]c3=O)C[C@@H]1OC(=O)[C@H](C)N)OC2 |  | 74.1 µg/mL |